Compound potency records, mixed from different reports. Data source: NIAID ChemDB in PubChem.

Common to all: tests in culture; organism: Candida albicans; read by: agar diffusion; endpoint: zone

Conditions beyond the fields shown may differ between rows. Zones are inhibition diameters on agar.

Fc1ccc(CSc2nnc(C34CC5CC(CC(C5)C3)C4)n2-c2ccccc2)cc1 ; dose: 200 µg/disc ; strain: IFO 0583 ; result: <10 mm
CCOC(=O)C1CCN(Cn2nc(C34CC5CC(CC(C5)C3)C4)n(/N=C/c3ccc(O)cc3)c2=S)CC1 ; dose: 200 µg/disc ; strain: IFO 3007 ; result: 19 mm
CC1(C)C=C2C3CCC4[C@@]5(C)CC[C@H](OC(=O)/C=C\c6ccc(O)cc6)C(C)(C)C5CC[C@@]4(C)[C@]3(C)CC[C@@]2(C)CC1 ; dose: 30 mg/disc ; strain: UPCC 2168 ; result: 11 mm
CS(=O)(=O)c1nc(N)c(C#N)c(-c2ccccc2[N+](=O)[O-])n1 ; dose: 25 µg/mL ; strain: MTCC 227 ; result: 18 mm
Cc1cc(=O)n(-c2ccc(N=Nc3c(-c4c(O)c5ccccc5n(C)c4=O)[nH][nH]c3=O)cc2)n1C ; dose: 1 mg/mL ; strain: ATCC 10231 ; result: 10 mm
Cc1nn(-c2ccccc2)c2c1C1(C(=O)N(CCCCCCN3C(=O)C4(SCC(=O)N4c4c(C)n(C)n(-c5ccccc5)c4=O)c4ccccc43)c3ccccc31)c1c(C)nn(-c3ccccc3)c1O2 ; dose: 100 µg/mL ; strain: MTCC 227 ; result: 17 mm
CSC1=NC(c2cccc([N+](=O)[O-])c2)C(C#N)=C(N)N1 ; dose: 100 µg/mL ; strain: MTCC 227 ; result: 19 mm
S=c1[nH]nc(C23CC4CC(CC(C4)C2)C3)n1/N=C/c1c(Cl)cccc1Cl ; dose: 200 µg/disc ; strain: IFO 3007 ; result: <10 mm
COc1ccc(C2SCC(=O)N2n2c(-c3sc(NC(C)=O)nc3C)n[nH]c2=S)cc1 ; dose: 100 µg/mL ; result: 13 mm
Cc1nn(-c2ccccc2)c2c1C1(C(=O)N(CCCCCCN3C(=O)C4(SCC(=O)N4c4c(C)n(C)n(-c5ccccc5)c4=O)c4cc(F)ccc43)c3ccc(F)cc31)c1c(C)nn(-c3ccccc3)c1O2 ; dose: 100 µg/mL ; strain: MTCC 227 ; result: 21 mm
CCCCOc1ccc(-c2csc(NS(=O)(=O)C3C(=O)ONN3c3ccc(C)cc3)n2)cc1 ; dose: 250 µg/mL ; strain: MTCC 227 ; result: 23 mm
C/C=C/C1=CC2=CC(=O)[C@](C)(OC(=O)c3c(C)cc(O)c(O)c3OC)C(=O)C2=CO1 ; dose: 25 µg/disc ; strain: ATCC 64548 ; result: 0 mm
Cc1ccc(N2NOC(=O)C2S(=O)(=O)Nc2nc3ccc(Br)cc3s2)cc1 ; dose: 250 µg/mL ; strain: MTCC 227 ; result: 18 mm
CS(=O)(=O)c1nc(N)c(C#N)c(-c2ccccc2O)n1 ; dose: 100 µg/mL ; strain: MTCC 227 ; result: 19 mm
Cc1ccc(N=Nc2c(-c3c(O)c4ccccc4n(C)c3=O)[nH][nH]c2=O)cc1 ; dose: 1 mg/mL ; strain: ATCC 10231 ; result: 14 mm
CSC1=NC(c2ccccc2O)C(C#N)=C(N)N1 ; dose: 25 µg/mL ; strain: MTCC 227 ; result: 17 mm
CC1(C)CC2C3=CCC4[C@@]5(C)CCC(=O)C(C)(C)C5CC[C@@]4(C)[C@]3(C)C[C@@H](O)[C@@]2(CO)[C@@H](O)C1 ; dose: 30 mg/disc ; strain: UPCC 2168 ; result: 12 mm
C[C@H]1[C@H](O)[C@@H](C)/C=C/C=C/C=C/C=C/C=C/C=C/C=C/[C@H](O[C@@H]2O[C@H](C)[C@@H](O)[C@H](N)[C@@H]2O)C[C@@H]2O[C@](O)(C[C@@H](O)C[C@@H](O)CC[C@H](O)[C@@H](O)C[C@@H](O)CC(=O)O[C@H]1C)C[C@H](O)[C@H]2C(=O)O ; dose: 100 µg/mL ; strain: AI ; result: 30 mm
COc1cc(C2SCC(=O)N2n2c(-c3sc(NC(C)=O)nc3C)n[nH]c2=S)cc(OC)c1OC ; dose: 100 µg/mL ; result: 15 mm
CSC1=NC(/C=C/c2ccccc2)C(C#N)=C(N)N1 ; dose: 100 µg/mL ; strain: MTCC 227 ; result: 20 mm
COC1=CC(=O)C[C@@H](C)[C@]12Oc1c(Cl)c(OC)cc(OC)c1C2=O ; dose: 100 µg/mL ; result: 34 mm
Cc1ccc2c(c1)C1(SCC(=O)N1c1c(C)n(C)n(-c3ccccc3)c1=O)C(=O)N2CCCCCCN1C(=O)C2(c3cc(F)ccc31)c1c(C)nn(-c3ccccc3)c1Oc1c2c(C)nn1-c1ccccc1 ; dose: 100 µg/mL ; strain: MTCC 227 ; result: 19 mm
O=[N+]([O-])c1ccccc1/C=N/n1c(C23CC4CC(CC(C4)C2)C3)n[nH]c1=S ; dose: 200 µg/disc ; strain: IFO 3007 ; result: <10 mm
Cc1ccc2c(c1)C1(C(=O)N2CCCCCCN2C(=O)C3(SCC(=O)N3c3c(C)n(C)n(-c4ccccc4)c3=O)c3ccccc32)c2c(C)nn(-c3ccccc3)c2Oc2c1c(C)nn2-c1ccccc1 ; dose: 100 µg/mL ; strain: MTCC 227 ; result: 18 mm
COc1ccccc1N1CCN(Cn2nc(C34CC5CC(CC(C5)C3)C4)n(/N=C/c3c(F)cccc3F)c2=S)CC1 ; dose: 200 µg/disc ; strain: IFO 3007 ; result: <10 mm
CC(=O)Nc1nc(C)c(-c2n[nH]c(=S)n2N2C(=O)CSC2c2cccc([N+](=O)[O-])c2)s1 ; dose: 100 µg/mL ; result: 12 mm
Cc1ccc(N=Cc2c(-c3c(O)c4ccccc4n(C)c3=O)[nH][nH]c2=O)cc1 ; dose: 1 mg/mL ; strain: ATCC 10231 ; result: 23 mm
c1ccc(CSc2nnc(C34CC5CC(CC(C5)C3)C4)n2-c2ccccc2)cc1 ; dose: 200 µg/disc ; strain: IFO 0583 ; result: <10 mm
CC(=O)Nc1nc(C)c(-c2n[nH]c(=S)n2N2C(=O)CSC2c2ccc(N(C)C)cc2)s1 ; dose: 100 µg/mL ; result: 16 mm
Cc1ccc(N2NOC(=O)C2S(=O)(=O)Nc2nc3ccc([N+](=O)[O-])cc3s2)cc1 ; dose: 250 µg/mL ; strain: MTCC 227 ; result: 25 mm
CCN(CC)CCSc1nnc(C23CC4CC(CC(C4)C2)C3)n1C ; dose: 200 µg/disc ; strain: IFO 0583 ; result: <10 mm
COC1=CC(=O)C[C@@H](C)[C@]12Oc1c(Cl)c(OC)cc(OC)c1C2=O ; dose: 250 µg/mL ; strain: MTCC 227 ; result: 24 mm
CN1C(=O)/C(=c2/[nH][nH]c(=O)/c2=C\c2ccccn2)C(=O)c2ccccc21 ; dose: 1 mg/mL ; strain: ATCC 10231 ; result: 6 mm
Cc1ccc2c(c1)C1(SCC(=O)N1c1c(C)n(C)n(-c3ccccc3)c1=O)C(=O)N2CCCCCCBr ; dose: 100 µg/mL ; strain: MTCC 227 ; result: 15 mm
CS(=O)(=O)c1nc(N)c(C#N)c(-c2ccccc2)n1 ; dose: 25 µg/mL ; strain: MTCC 227 ; result: 17 mm
O=[N+]([O-])c1ccc(CSc2nnc(C34CC5CC(CC(C5)C3)C4)n2-c2ccccc2)cc1 ; dose: 200 µg/disc ; strain: IFO 0583 ; result: 12 mm
Cc1ccc2c(c1)C1(C(=O)N2CCCCCCN2C(=O)C3(SCC(=O)N3c3c(C)n(C)n(-c4ccccc4)c3=O)c3cc(F)ccc32)c2c(C)nn(-c3ccccc3)c2Oc2c1c(C)nn2-c1ccccc1 ; dose: 100 µg/mL ; strain: MTCC 227 ; result: 18 mm
CS(=O)(=O)c1nc(N)c(C#N)c(/C=C\c2ccccc2)n1 ; dose: 25 µg/mL ; strain: MTCC 227 ; result: 17 mm
S=c1n(CN2CCN(Cc3ccccc3)CC2)nc(C23CC4CC(CC(C4)C2)C3)n1-c1ccccc1 ; dose: 200 µg/disc ; strain: IFO 0583 ; result: <10 mm

For reference, 3 entries again:

| SMILES | dose | strain | result |
|---|---|---|---|
| Cc1ccc(N=Cc2c(-c3c(O)c4ccccc4n(C)c3=O)[nH][nH]c2=O)cc1 | 1 mg/mL | ATCC 10231 | 23 mm |
| c1ccc(CSc2nnc(C34CC5CC(CC(C5)C3)C4)n2-c2ccccc2)cc1 | 200 µg/disc | IFO 0583 | <10 mm |
| Cc1ccc(N2NOC(=O)C2S(=O)(=O)Nc2nc3ccc([N+](=O)[O-])cc3s2)cc1 | 250 µg/mL | MTCC 227 | 25 mm |